Measured data: PubChem BioAssay AID624099 (ICCB-Longwood, 2012)
Here is an unselected part of about 21,000 reagents tested. 497 of all reagents (2.4%) count as active. 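Higher z means weaker E2 silencing; only reporter increases were scored, and knock-downs that hurt cell survival may mask genuine repressor factors.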 The numbers tell different reagents against one gene apart.

Screen: 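Knock-downs relieving repression by E2 of an HPV18 LCR luciferase reporter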 (primary screen)
Cells: human C33A cervical carcinoma cells (HPV-negative) stably expressing BPV1 E2 and an HPV18 LCR luciferase reporter
Reagent: siRNA pool against human genes, 40 nM
Time to read-out: 72 h
Measurement: 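Per-well luciferase luminescence, z-scored on each plate against the plate mean and SD with control wells left out, then averaged across three replicate plates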
Scale: mean z-score and z-score: higher = stronger reporter signal, weaker E2 silencing
Active means: 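Mean z ≥ 2 together with z ≥ 2 in two or more of the three replicates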

Gene	reagent	mean z-score	z-score, replicate A	z-score, replicate B	z-score, replicate C	outcome
GGTLC2	1	1.95	2.27	1.88	1.69	inactive
UNC5D	1	0.21	0.25	0.21	0.18	inactive
HTATSF1	1	-0.64	-1.21	-0.49	-0.23	inactive
SNX17	1	-0.16	-0.6	-0.03	0.15	inactive
XRN1	1	1.09	0.81	1.02	1.42	inactive
DFFA	1	0.77	0.75	0.77	0.79	inactive
GALNT16	1	-0.14	-0.19	-0.19	-0.03	inactive
LOC389365 (retired record)	1	0.27	0.18	0.13	0.5	inactive
ABHD17AP4	1	0.09	0.4	0.18	-0.31	inactive
CABLES1	1	-1.89	-1.75	-2.27	-1.65	inactive
MAGEC3	1	1.31	1.35	1.15	1.43	inactive
LHCGR	1	0.34	0.41	0.3	0.32	inactive
DLST	1	0.78	1.16	0.79	0.39	inactive
SPAG1	1	-0.48	-0.5	-0.66	-0.27	inactive
LINC00620	1	-1.87	-2.02	-2.04	-1.55	inactive
TMEM170A	1	0.19	0.22	0.21	0.12	inactive
ST18	1	0.5	0.5	0.44	0.56	inactive
LRSAM1	1	-0.78	-0.99	-0.79	-0.56	inactive
PSMF1	1	0.55	0.86	0.26	0.53	inactive
FARP1	1	1.84	1.66	1.59	2.28	inactive
COX6A2	1	-1.04	-1.06	-1.21	-0.85	inactive
MTHFD2	1	-0.75	-0.77	-0.59	-0.89	inactive
DGKB	1	1.87	2.3	1.7	1.6	inactive
PLD1	1	0.27	0.31	-0.2	0.69	inactive
UFD1	1	0.59	0.7	0.55	0.52	inactive
BNC1	1	0.39	0.14	0.38	0.65	inactive
BCKDHA	1	0.65	0.68	0.75	0.52	inactive
DDOST	1	0.7	0.59	0.55	0.96	inactive
IL13RA2	1	-1.2	-1.16	-1.17	-1.28	inactive
ILRUN	1	-0.65	-0.79	-0.51	-0.64	inactive
SLC7A8	1	-0.17	-0.15	-0.21	-0.17	inactive
C2orf66	1	-2.72	-2.19	-2.81	-3.18	inactive
PSMD3	1	-1.15	-1.35	-1.19	-0.91	inactive
FIRRE	1	2.01	1.78	2.28	1.99	inactive
HIBCH	1	1.14	1.14	0.89	1.4	inactive
RPS3AP49	1	-3.17	-3.04	-3.33	-3.14	inactive
OMG	1	-1.03	-1.18	-0.9	-1.01	inactive
FAM9C	1	-1.8	-1.76	-1.81	-1.82	inactive
TTYH3	1	1.19	1.13	1.1	1.35	inactive
FBXW7	1	-0.13	0.17	-0.5	-0.06	inactive
DACT3	1	0.67	0.91	0.97	0.12	inactive
RBX1	1	-0.59	-0.24	-0.8	-0.72	inactive
PCBP4	1	-0.08	-0.04	-0.18	-0.01	inactive
USP41P	1	1.4	1.38	1.78	1.03	inactive
YWHAEP7	1	-0.74	-0.82	-0.85	-0.55	inactive

Continued; the last 4 above are carried over.
Gene	reagent	mean z-score	z-score, replicate A	z-score, replicate B	z-score, replicate C	outcome
RBX1	1	-0.59	-0.24	-0.8	-0.72	inactive
PCBP4	1	-0.08	-0.04	-0.18	-0.01	inactive
USP41P	1	1.4	1.38	1.78	1.03	inactive
YWHAEP7	1	-0.74	-0.82	-0.85	-0.55	inactive
TAS1R2	1	-1.43	-1.48	-1.81	-1.01	inactive
HNF1B	1	-1.52	-1.75	-1.47	-1.35	inactive
HTR3D	1	0.07	-0.11	0.44	-0.12	inactive
BCL2L13	1	-0.54	-0.56	-0.62	-0.45	inactive
GRIA1	1	-0.41	-0.14	-0.48	-0.59	inactive
ARHGAP25	1	0.43	0.26	0.46	0.56	inactive
BMPR2	1	0.34	0.38	0.47	0.19	inactive
AQP9	1	-0.33	-0.15	-0.38	-0.46	inactive
NDUFC2	1	-1.57	-1.43	-1.7	-1.58	inactive
CXCL14	1	-0.95	-1.07	-1.11	-0.67	inactive
RNF217	1	-0.12	-0.03	-0.05	-0.28	inactive
CCR5	1	4.79	5.11	4.8	4.46	active
FAM74A1	1	-0.42	-0.6	-0.45	-0.22	inactive
NR6A1	1	0.35	0.43	0.39	0.25	inactive
PTCHD3	1	-0.96	-1.16	-0.79	-0.94	inactive
CD101	1	0.79	0.73	0.79	0.84	inactive
LOC400197 (retired record)	1	0.37	0.36	0.36	0.38	inactive
TNFRSF13C	1	0.31	0.25	0.39	0.28	inactive
MISO1	1	-0.42	-0.41	-0.48	-0.36	inactive
CWF19L1	1	-0.64	-0.99	-0.8	-0.13	inactive
ZNF662	1	0.86	0.82	1.03	0.73	inactive
GALR1	1	2.06	2.5	1.73	1.94	inactive
NEIL1	1	1.32	1.27	1.58	1.12	inactive
PMS2P3	1	1.17	1	1.32	1.19	inactive
POLR2J4	1	-1.19	-1.1	-1.32	-1.15	inactive
POLR2J4	2	-1.15	-0.95	-1.29	-1.21	inactive
INCA1	1	0.49	0.76	0.56	0.16	inactive
LOC399924 (retired record)	1	-0.47	-0.36	-0.31	-0.74	inactive
